{"source": "PubChem BioAssay AID1259309", "about": "(ICCB-Longwood Screening Facility, Harvard Medical School, 2017)", "note": "The list shows a part of the results, in another mix than the full data. Activity calls are given as the source filed them. Cut-off read from the data, not from the text of the source: active = growth inhibition above about 68%; inactive = the rest.", "data": [{"test": "growth inhibition of ugtP-null S. aureus, primary screen, RN4220 ugtP deletion, OD600 (AID 1259309);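 note: plate controls were untreated wells for no effect and antibiotic for full effect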", "conditions": "16 h, active compounds read high", "values": [{"smiles": "O=[N+]([O-])c1cc([N+](=O)[O-])c(-c2ccn[nH]2)s1", "growth inhibition": "active: 86.8%"}, {"smiles": "O=c1c2cc([N+](=O)[O-])ccc2[nH]c2c([N+](=O)[O-])cc([N+](=O)[O-])cc12", "growth inhibition": "active: 101%"}]}]}
